# Tested on: upper gut transit
# Assay: Upper gut transit time by lactulose breath hydrogen test after oleate or oleic acid
# Format: in vivo, human
# Details: 4 grams of oleic acid
# Text: In a preliminary study, five patients with persistent diarrhea for 3 to 22 months, (one each due to vagal denervation, ileal resection for Crohn's disease, and vagotomy and antrectomy, and two due to idiopathic causes) were studied. […] This test relies on the metabolism of certain carbohydrate materials (e.g. lactulose) by the microbial flora within the caecum. By generating gas which can be detected in the expired air, it is possible to make some estimation about the initial arrival of the administered material within the colon.
# Each patient received orally in random order, 0, 1.6 or 3.2 g of sodium oleate in 25 mL Ensure (Ross), followed by 100 mL water. Thirty minutes after each dose of oleate, patients received 10 g lactulose orally, followed by 25 mL water. Breath samples were collected in commercially available breath testing bags (Quintron, Menomonee Falls, Wis.) every 10-15 minutes, and the hydrogen content of the samples was measured using a breath analyzer (Microlyzer Model 12, Quintron Instruments, Menomonee Falls, Wis.), calibrated against gas samples of known hydrogen concentration. With a syringe, a 40-mL sample of the expired breath was withdrawn from the collection bag and analyzed immediately for hydrogen concentration (ppm). […] Data were further analyzed using 1-way repeated measures analysis of variance (ANOVA)(See Table 4). […]
smiles,measurement,setting,value
CCCCCCCC/C=C\CCCCCCCC(=O)O [oleic acid],mean AUC,IBD patients,1244.9±250.4
same,mean AUC,normal subjects,1873.3±330.5
